Peptide text beside a SMILES is read from it. * marks the point of attachment. Lauroyl = CCCCCCCCCCCC(=O)*; Octanoyl = CCCCCCCC(=O)*

This data set is described as follows: Circular dichroism, helicity. The data set is classed as physicochemical. The following applies: calculated from the [θ]222 value in 100 mM SDS solution; CD, 3 × 10^−4 M peptide. The method, then: The secondary structure of the peptides was investigated by circular dichroism (CD) spectroscopy in various environments, including 0.2 mM potassium-phosphate buffer (aqueous solution, pH 7), 100 mM sodium dodecyl sulphate (SDS), and 2,2,2-trifluoroethanol (TFE). As these peptides are active on membranes, we chose SDS, as SDS micelles represent a model mimicking the prokaryotic cell membrane. TFE, on the other hand, is a solvent that induces the formation of helical structures.
The electronic CD curves in the far-UV region (below 260 nm) were obtained on a Jasco (Tokyo, Japan) model J-1500 spectropolarimeter with a fused quartz cell of 0.02 cm pathlength (Hellma, Mühlheim, Germany). The values are expressed in terms of [θ]R, the molar ellipticity per residue (deg × cm^2/dmol). Spectra were recorded at room temperature in water, in spectrograde TFE (99.9% Acros Organics, Geel, Belgium) and 100 mM SDS solution at 3 × 10^−4 M peptide concentration. The final molar peptide-to-lipid ratio is 1:300.
As for `CCCCCCCC(=O)N[C@@H](CCCCN)C(=O)N[C@@H](CCCNC(=N)N)C(=O)N[C@@H](CC(C)C)C(=O)N[C@@H](CCCCN)C(=O)N[C@@H](CCCCN)C(=O)N[C@H](C(=O)NCC(=O)N[C@@H](CCCCN)C(=O)N[C@H](C(=O)N[C@@H](CC(C)C)C(=O)N[C@@H](CCCCN)C(=O)N[C@@H](Cc1c[nH]c2ccccc12)C(=O)N[C@H](C(=O)N[C@@H](C)C(=O)N[C@@H](CCCCN)C(=O)N[C@H](C(=O)N[C@H](C(=O)NCC(=O)N[C@@H](CO)C(=O)N[C@H](C(N)=O)[C@@H](C)CC)C(C)C)[C@@H](C)CC)[C@@H](C)CC)C(C)C)[C@@H](C)CC` [c] (Octanoyl-KRLKKIGKVLKWIAKIVGSI-NH2), the “Helicity (%)” value is listed as 71%.

As for `CCCCCCCCCCCC(=O)N[C@@H](CCCCN)C(=O)N[C@@H](CCCNC(=N)N)C(=O)N[C@@H](CC(C)C)C(=O)N[C@@H](CCCCN)C(=O)N[C@@H](CCCCN)C(=O)N[C@H](C(=O)NCC(=O)N[C@@H](CCCCN)C(=O)N[C@H](C(=O)N[C@@H](CC(C)C)C(=O)N[C@@H](CCCCN)C(=O)N[C@@H](Cc1c[nH]c2ccccc12)C(=O)N[C@H](C(=O)N[C@@H](C)C(=O)N[C@@H](CCCCN)C(=O)N[C@H](C(=O)N[C@H](C(=O)NCC(=O)N[C@@H](CO)C(=O)N[C@H](C(N)=O)[C@@H](C)CC)C(C)C)[C@@H](C)CC)[C@@H](C)CC)C(C)C)[C@@H](C)CC` [d] (Lauroyl-KRLKKIGKVLKWIAKIVGSI-NH2), the “Helicity (%)” value is given as 47%.

Regarding Ac-KRLKKIGKVLKWIAKIVGSI-NH2 [b], the “Helicity (%)” value is listed as 94%.

For the molecule Ac-KRLKKIGKVLKWIPPIVGSI-NH2 [a], the “Helicity (%)” value is on record as 18%.

The values above are taken from publication PMC10499915 (Scientific Reports, 2023).
